Pooled drug test results. Numbers come from NIAID ChemDB, via PubChem.

Common to all: growth or infection tests

Percent inhibition refers to the dose given; in toxicity tests it is the harm to the cells.

smiles,dose,strain or isolate,setting,method,species,measure,value
C[C@H]1[C@H](O)[C@@H](C)/C=C/C=C/C=C/C=C/C=C/C=C/C=C/[C@H](O[C@@H]2O[C@H](C)[C@@H](O)[C@H](N)[C@@H]2O)C[C@@H]2O[C@](O)(C[C@@H](O)C[C@@H](O)CC[C@H](O)[C@@H](O)C[C@@H](O)CC(=O)O[C@H]1C)C[C@H](O)[C@H]2C(=O)O,100 µg/disc,Cp1,-,agar diffusion,Candida parapsilosis,zone,33 mm
OB(O)c1ccccc1,-,-,-,turbidity,Candida tenuis,MFC,500 µg/mL
COc1ccc(NC2=C(Cl)C(=O)c3nc(C)sc3C2=O)cc1,-,KCCM 50662,-,broth dilution,Candida utilis,MIC,6.3 µg/mL
Cc1ccc(/C=N/Nc2ccnc3cc(Cl)ccc23)cc1,-,-,-,-,Candida lipolytica,MIC,40 µg/mL
Clc1ccc(COC(Cn2ccnc2)c2ccc(Cl)cc2Cl)c(Cl)c1,-,40 isolates,pH 6,broth dilution,Candida glabrata,MIC,0.25 µg/mL
OB1OC(N2CCN(C3OB(O)c4ccccc43)CC2)c2ccccc21,-,-,-,turbidity,Candida tenuis,MFC,0.9 µg/mL
O=[N+]([O-])c1ccc(/C=N\O)cc1,-,-,-,-,Candida famata,MIC100,3010 µM
CCC(C)n1ncn(-c2ccc(N3CCN(c4ccc(OC[C@H]5CO[C@](Cn6cncn6)(c6ccc(Cl)cc6Cl)O5)cc4)CC3)cc2)c1=O,-,40 isolates,pH 6,broth dilution,Candida glabrata,EC90,>16 µg/mL
Cc1ccc(-n2cc(C(C)(C)O)nn2)cc1C,2048 µg/mL,URM 4127,-,broth dilution,Candida albicans,inhibition,0%
O=C1S/C(=C\c2ccoc2)C(=O)N1CC(O)(Cn1nccn1)c1ccc(F)cc1F,-,Fluconazole-resistant 0710922,-,-,Candida colliculosa,MIC50,1.16 µg/mL
CC[C@@H]([C@H](C)O)n1ncn(-c2ccc(N3CCN(c4ccc(OC[C@@H]5CO[C@@](Cn6cncn6)(c6ccc(F)cc6F)C5)cc4)CC3)cc2)c1=O,-,-,-,-,Candida kefyr,MIC50,0.008–2 µg/mL
Clc1ccccc1C(c1ccccc1)(c1ccccc1)n1ccnc1,-,40 isolates,pH 6,broth dilution,Candida glabrata,MIC,2 µg/mL
CN[C@@H]1[C@H](O[C@H]2[C@H](O[C@H]3[C@H](O)[C@@H](O)[C@H](N=C(N)N)[C@@H](O)[C@@H]3N=C(N)N)O[C@@H](C)[C@]2(O)C=O)O[C@@H](CO)[C@H](O)[C@H]1O,450 µg/well,-,-,agar diffusion / agar,Candida spp.,zone,12.4 mm
O=C(NN=C1CCCCCC1)c1snnc1C(F)(F)F,100 µg/mL,NCIM 3462,-,agar diffusion / agar,Candida rugosa,zone,0 mm
Clc1ccc(C(c2ccccc2)N2CCN(CCn3ccnc3)CC2)cc1,-,-,-,agar,Candida dubliniensis,MIC90,>256 µg/mL
O=c1[nH]c(-c2cc3ccccc3oc2=O)nc2c1C(c1ccc(O)cc1)c1ccc3ccccc3c1O2,150 µg/mL,-,-,agar diffusion / agar,Candida rugosa,zone,15 mm
Cc1ccc(NC2=C(Cl)C(=O)c3nc(C)sc3C2=O)cc1,-,KCCM 50662,-,broth dilution,Candida utilis,MIC,6.3 µg/mL
O=C(NN=Cc1ccc(F)cc1)c1snnc1C(F)(F)F,150 µg/mL,NCIM 3462,-,agar diffusion / agar,Candida rugosa,zone,0 mm
O=C1C2=C(OC(CI)C2)C(=O)c2ccccc21,-,Clinical isolate,-,broth dilution,Candida tropicalis,MIC,64 µg/mL
c1ccc(C(c2ccccc2)n2cnc3ccccc32)cc1,-,-,-,agar,Candida dubliniensis,MIC90,>256 µg/mL
CC(C)=NNC(=O)c1snnc1C(F)(F)F,100 µg/mL,NCIM 3462,-,agar diffusion / agar,Candida rugosa,zone,0 mm
COc1ccc(C2c3ccc4ccccc4c3Oc3nc(-c4cc5ccccc5oc4=O)[nH]c(=O)c32)cc1,100 µg/mL,-,-,agar diffusion / agar,Candida rugosa,zone,16 mm
Clc1ccc(C(c2ccccc2)n2nnc3ccccc32)cc1,-,-,-,broth dilution,Candida parapsilosis,MFC,>256 µg/mL
Cc1nc2c(s1)C(=O)C(Nc1ccc(F)cc1)=C(Cl)C2=O,-,KCCM 50662,-,broth dilution,Candida utilis,MIC,25 µg/mL
CC(C)(O)c1cn(-c2cccc3ccccc23)nn1,2048 µg/mL,URM 4388,-,broth dilution,Candida albicans,inhibition,0%
Cc1nc2c(s1)C(=O)C(Nc1ccc(I)cc1)=C(Cl)C2=O,-,KCCM 50662,-,broth dilution,Candida utilis,MIC,25 µg/mL
O/N=C/c1ccc(O)cc1,-,-,-,-,Candida lipolytica,MIC,>7290 µM
NCCCC[C@H](NC(=O)[C@@H](N)CCCCN)C(=O)N[C@@H](CCC(N)=O)C(=O)N[C@@H](CCCN=C(N)N)C(=O)O,50 µM,ATCC 10231,-,-,Candida albicans,inhibition,0%
O/N=C\c1ccccc1Cl,-,-,-,-,Candida lipolytica,MIC,1410 µM
Fc1cc(F)c(B2Oc3ccccc3O2)c(F)c1,-,-,-,turbidity,Candida tenuis,MIC,125 µg/mL
O=[N+]([O-])c1cccc(/C=N\O)c1,-,-,-,-,Candida lipolytica,MIC100,3010 µM
CCC(C)n1ncn(-c2ccc(N3CCN(c4ccc(OC[C@H]5CO[C@](Cn6cncn6)(c6ccc(Cl)cc6Cl)O5)cc4)CC3)cc2)c1=O,-,ATCC 96139,-,broth dilution,Candida orthopsilosis,MIC,0.0625 µg/mL
C=CCc1ccc(O)c(OC)c1,-,3240,-,turbidity,Candida tropicalis,MIC90,500 µg/mL
O/N=C\c1ccccc1,-,-,-,-,Candida lipolytica,MIC100,8260 µM
Cc1cc(=O)oc2cc(OCC(O)Cn3cncn3)cc(OCC(O)Cn3cncn3)c12,-,-,-,-,Candida mycoderma,MIC,4 µg/mL
COc1ccc(/C=N/O)cc1,-,-,-,-,Candida famata,MIC100,6620 µM
c1ccc(C(c2ccccc2)n2cncn2)cc1,-,-,-,agar,Candida dubliniensis,MIC90,8 µg/mL
COc1cc(C2c3ccc4ccccc4c3Oc3nc(-c4cc5ccccc5oc4=O)[nH]c(=O)c32)ccc1O,100 µg/mL,-,-,agar diffusion / agar,Candida rugosa,zone,12 mm
Cc1cc2ncn(CC(O)COc3cc(OCC(O)Cn4cnc5cc(C)c(C)cc54)c4c(C)cc(=O)oc4c3)c2cc1C,-,-,-,-,Candida mycoderma,MIC,32 µg/mL
CCC(C)CC(C)CCCCCCCCC(=O)N[C@H]1C[C@@H](O)[C@H](NCCN)NC(=O)[C@@H]2[C@@H](O)CCN2C(=O)[C@H]([C@H](O)CCN)NC(=O)[C@H]([C@H](O)[C@@H](O)c2ccc(O)cc2)NC(=O)[C@@H]2C[C@@H](O)CN2C(=O)[C@H]([C@@H](C)O)NC1=O,-,ATCC 96139,-,broth dilution,Candida orthopsilosis,MIC,0.0312 µg/mL
N=c1oc2ccccc2c2csc(N)c12,-,-,-,broth dilution,Candida guilliermondii,MIC,128 µg/mL
O=C(NN=C1CCCC1)c1snnc1C(F)(F)F,100 µg/mL,NCIM 3462,-,agar diffusion / agar,Candida rugosa,zone,0 mm
CCCCCOc1ccc(-c2ccc(-c3ccc(C(=O)N[C@H]4C[C@@H](O)[C@@H](O)NC(=O)[C@@H]5[C@@H](O)[C@@H](C)CN5C(=O)[C@H]([C@H](C)O)NC(=O)[C@H]([C@H](O)[C@@H](O)c5ccc(O)cc5)NC(=O)[C@@H]5C[C@@H](O)CN5C(=O)[C@H]([C@H](C)O)NC4=O)cc3)cc2)cc1,-,-,-,-,Candida lusitaniae,MIC50,0.015–1 µg/mL
O=c1[nH]c(-c2cc3ccccc3oc2=O)nc2c1C(c1ccccc1Cl)c1ccc3ccccc3c1O2,100 µg/mL,-,-,agar diffusion / agar,Candida rugosa,zone,11 mm
CC(=O)OC[C@H]1O[C@@H](O[C@@H]2[C@@H](N=[N+]=[N-])[C@H](O)[C@H](O)[C@H]3OC(C)(C)O[C@H]32)[C@H](OC(C)=O)[C@@H](OC(C)=O)[C@H]1OC(C)=O,250 µg/mL,ATCC 10231,-,broth dilution / turbidity,Candida albicans,inhibition,77.96%
Nc1[nH]c(=O)ncc1F,-,40 isolates,pH 7,broth dilution,Candida glabrata,EC90,0.125 µg/mL
CCCCCCCCCCCCCCCC(=O)NC(CCCCN)C(=O)NC(CCCCN)C(N)=O,-,4783,-,broth dilution,Candida guilliermondii,MIC,8 µg/mL
CC(C)(O)c1cn(-c2ccc3ccccc3c2)nn1,2048 µg/mL,URM 4802,-,broth dilution,Candida krusei,inhibition,0%
OC(Cn1cncn1)(Cn1cncn1)c1ccc(F)cc1F,-,-,-,agar,Candida guilliermondii,MIC,12.5–25 µg/mL
Cc1ccc(C2c3ccc4ccccc4c3Oc3nc(-c4cc5ccccc5oc4=O)[nH]c(=O)c32)cc1,100 µg/mL,-,-,agar diffusion / agar,Candida rugosa,zone,11 mm
OB1OCc2cc(F)ccc21,-,-,-,turbidity,Candida tenuis,MIC,<0.9 µg/mL

Repeating the final 4 entries:

smiles | dose | strain or isolate | setting | method | species | measure | value
CC(C)(O)c1cn(-c2ccc3ccccc3c2)nn1 | 2048 µg/mL | URM 4802 | - | broth dilution | Candida krusei | inhibition | 0%
OC(Cn1cncn1)(Cn1cncn1)c1ccc(F)cc1F | - | - | - | agar | Candida guilliermondii | MIC | 12.5–25 µg/mL
Cc1ccc(C2c3ccc4ccccc4c3Oc3nc(-c4cc5ccccc5oc4=O)[nH]c(=O)c32)cc1 | 100 µg/mL | - | - | agar diffusion / agar | Candida rugosa | zone | 11 mm
OB1OCc2cc(F)ccc21 | - | - | - | turbidity | Candida tenuis | MIC | <0.9 µg/mL

A number after MIC or MFC names an inhibition level or a share of isolates. Two numbers with a dash give a range or band. Zone: diameter of growth inhibition. An empty or dashed field is not shown. ECn: concentration that inhibits the pathogen or its effect by n%. Rows are shuffled and stem from different studies.